The experiment deals with 373-amino-acid fragment of PpsE (two-hybrid prey from the genomic library). As to the kind of experiment: yeast two-hybrid, liquid β-galactosidase assay. The settings on record: parent: est. 370; read off a plot.

Take “MmpL7 domain 2 fused to the LexA DNA-binding protein (two-hybrid bait) Y594H”: the response was determined as 49 Miller Units. In the case of “MmpL7 domain 2 fused to the LexA DNA-binding protein (two-hybrid bait) W571R”, the response was 65 Miller Units. In the case of “MmpL7 domain 2 fused to the LexA DNA-binding protein (two-hybrid bait) Y594C” it was 30 Miller Units; in that of “MmpL7 domain 2 fused to the LexA DNA-binding protein (two-hybrid bait) I611S”, 31 Miller Units.

Source of the values: PMC1238737, “Interaction between Polyketide Synthase and Transporter Suggests Coupled Synthesis and Export of Virulence Lipid in M. tuberculosis” (2005).
